Measured values from several laboratories, pooled; numbers as filed in NIAID ChemDB.

All rows: whole-cell or culture tests; species: HIV-1; read by: p24; read-out: inhibition

Conditions beyond the fields shown may differ between rows.

{"compound": "C/C(=C(/CCO)SS/C(CCO)=C(\\C)N(C=O)Cc1cnc(C)nc1N)N(C=O)Cc1cnc(C)nc1N", "strain": "LAV-1", "cell line": "CEM/HIV-1(LAV-1) + CEM", "dose": "500 µM", "value": "90%"}
{"compound": "NCC(=O)NCC(=O)NCC=O", "strain": "IIIB", "cell line": "H9", "dose": "250 µg/mL", "value": "0%"}
{"compound": "Oc1ccc(/C=C/c2cc(O)cc(O)c2)cc1", "strain": "EJC-X1", "setting": "clinical isolate", "cell line": "PBMC", "dose": "5 µM", "value": "20%"}
{"compound": "CCC[C@@]1(CCc2ccccc2)CC(O)=C([C@H](CC)c2cccc(NS(=O)(=O)c3ccc(C(F)(F)F)cn3)c2)C(=O)O1", "strain": "Isolate UJ00007", "cell line": "PBMC", "dose": "0.15 µM", "value": "90%"}
{"compound": "COC(=O)[C@@H]1C2CCC(C[C@@H]1OC(=O)c1ccccc1)N2C", "strain": "IIIB", "cell line": "SupT1 + Sup-T1", "dose": "25 µg/mL", "value": "<0%"}
{"compound": "O=C1N(Cc2ccc(CO)cc2)[C@H](Cc2ccccc2)[C@H](O)[C@@H](O)[C@@H](Cc2ccccc2)N1Cc1ccc(CO)cc1", "strain": "A018C POST AZT", "cell line": "PBMC", "dose": "0.25 µM", "value": "90%"}
{"compound": "C[C@]12CC[C@@H]3c4ccc(O)cc4CC[C@H]3[C@@H]1CC[C@@H]2O", "cell line": "U1", "dose": "1 µM", "value": "-76%"}
{"compound": "CC(C)[C@H](NC(=O)c1ccc2ccccc2n1)C(=O)N[C@@H](Cc1ccccc1)[C@H](O)CN1CC[C@@H](OCc2ccncc2)C[C@H]1C(=O)NC(C)(C)C", "strain": "IIIB", "cell line": "H9", "dose": "0.009 µM", "value": "90%"}
{"compound": "O=CCNC(=O)[C@@H]1CCCN1", "strain": "IIIB", "cell line": "H9", "dose": "250 µg/mL", "value": "78.3%"}
{"compound": "O=S(=O)(O)c1cc(N=C=S)ccc1/C=C/c1ccc(N=C=S)cc1S(=O)(=O)O", "strain": "GB8", "cell line": "JM", "dose": "25 µg/mL", "value": "93.6%"}
{"compound": "C[C@@H](C=O)NC(=O)[C@@H]1CCCN1C(=O)CN", "strain": "IIIB", "cell line": "H9", "dose": "25 µg/mL", "value": "0%"}
{"compound": "c1cc(CN2CCCNCCNCCCNCC2)ccc1CN1CCCNCCNCCCNCC1", "strain": "SW26 CLADE C R5", "cell line": "PBMC", "dose": "0.1 µM", "value": "0%"}
{"compound": "NCC(=O)N1CCC[C@H]1C(=O)NCC(=O)N[C@H](C=O)CCCN=C(N)N", "strain": "IIIB", "cell line": "H9", "dose": "25 µg/mL", "value": "0%"}
{"compound": "CC(=O)N1CCC(C(=O)N(CCCN2CCC(Cc3ccc(C(N)=O)cc3)CC2)c2ccc(C)c(Cl)c2)CC1", "strain": "CTV R5 clinical isolate", "cell line": "PBMC", "dose": "0.005 µM", "value": "90%"}
{"compound": "NC(N)=NCCC[C@H](N)C(=O)NCC(=O)N1CCC[C@H]1C(=O)NCC=O", "strain": "ELI", "cell line": "HUT", "dose": "250 µg/mL", "value": "0%"}
{"compound": "COc1ccc(CN[C@@H](C(=O)N[C@H]2c3ccccc3C[C@H]2O)[C@H](O)[C@H](Cc2ccccc2)NC(=O)[C@@H](NC(=O)OCc2ccccc2)C(C)(C)C)cc1", "strain": "A018C", "cell line": "Primary T4 cells + T4", "dose": "0.28 µM", "value": "90%"}

A second listing of 2 rows from above:

{"compound": "C/C(=C(/CCO)SS/C(CCO)=C(\\C)N(C=O)Cc1cnc(C)nc1N)N(C=O)Cc1cnc(C)nc1N", "strain": "LAV-1", "cell line": "CEM/HIV-1(LAV-1) + CEM", "dose": "500 µM", "value": "90%"}
{"compound": "CC(=O)N1CCC(C(=O)N(CCCN2CCC(Cc3ccc(C(N)=O)cc3)CC2)c2ccc(C)c(Cl)c2)CC1", "strain": "CTV R5 clinical isolate", "cell line": "PBMC", "dose": "0.005 µM", "value": "90%"}

Percent inhibition refers to the dose given; in toxicity tests it is the harm to the cells.